The values below come from patent US7608726B2, “Substituted indolepyridinium as anti-infective compounds” (Tibotec Pharmaceuticals Ltd., priority 2002, dated 2009).

This data set relates to HIV viruses. Briefly: Cross resistance study with more than 8000 viruses.

On to `Cn1c2ccccc2c2c1cc(C#N)c(=O)n2-c1ccc([N+](=O)[O-])cc1` [Compound 2, 5-methyl-1-(4-nitro-phenyl)-2-oxo-2,5-dihydro-1H-pyrido[3,2-b]indole-3-carbonitrile], for which the “calculated correlation coefficient with 3TC” value (versus 3TC) is reported as “about 0.63”. Moreover, the “calculated correlation coefficient with known NRTIs” value (versus abacavir, AZT, D4T, DDC, DDI (all cases except 3TC)) was “lower than 0.28”. Besides, the “calculated correlation coefficient with known NNRTIs” value (versus capravirine, delavirdine, nevirapine, efavirenz) is at most 0.13.
